Assay results from patent publication US20030186887A1, “Compounds for detection of infection by chlamydophila abortus” (priority 2000, published 2003).

Test system: antibodies to C. abortus
Test: ELISA, comparison of compounds for sensitivity and specificity on 553 sera (second Table 4)
Format: binding, sheep
Conditions: for Sensitivity % Clinical/Micro pos'ive: 153 animals with clinical/microbiological evidence of infection; for Sensitivity % All infected sheep: all 198 challenged animals taken as positive
[1] = 1X CO: positivity defined as an OD ≧ the Cutoff OD
[2] = 2X CO: positivity defined as an OD ≧ 2 times the Cutoff OD

Substance | Specificity % [1] [%] | Sensitivity % Clinical/Micro pos'ive (1X CO) [%] | Sensitivity % All infected sheep (1X CO) [%] | Specificity % [2] [%] | Sensitivity % Clinical/Micro pos'ive (2X CO) [%] | Sensitivity % All infected sheep (2X CO) [%]
Biotin-KASSAAFNLVGLIVKGSSIAADQ [Compound 2/L] | 54.4 | 88.9 | 79.8 | 75.2 | 76.5 | 64.7
Biotin-KTITGMGAVPTGTAAANYKT [Compound 1/AX] | 99.2 | 65.4 | 51.5 | 99.7 | 56.2 | 43.4
GKGSSIAADQNKGSSIAADQ [Compound #2] | 66.8 | 76.5 | 65.7 | 80.9 | 65.3 | 53.0
GSGSGSGSGSGGVKGSSIAADQ [Compound 2-A] | 60.3 | 86.3 | 75.3 | 76.1 | 77.8 | 66.2
SGTAAANYKTKGTAAANYKT [Compound #1] | 48.2 | 84.3 | 73.7 | 79.4 | 69.9 | 59.1

Ends that are not written are not given here. * marks the point of attachment. Biotin = O=C1N[C@H]2[C@H](CS[C@H]2CCCCC(=O)*)N1
